Measured values from several laboratories, pooled; numbers as filed in NIAID ChemDB.

Common to all: whole-cell or culture tests; species: Vaccinia virus; cell line: E6SM; measure: EC50

ECn: concentration that inhibits the pathogen or its effect by n%. Rows are shuffled and stem from different studies.

{"compound": "Nc1nccc2c1ncn2[C@@H]1C[C@H](CO)[C@@H](O)[C@H]1O", "value": "1 µg/mL"}
{"compound": "Nc1cc([C@H]2C[C@H](O)[C@@H](CO)O2)c(F)cc1F", "value": ">400 µg/mL"}
{"compound": "Cc1cn([C@@H]2CO[C@H](CO)[C@@H](O)C2)c(=O)[nH]c1=O", "value": ">20 µg/mL"}
{"compound": "Cc1nc2ccc(Br)cc2c(=O)n1-c1nnc(-c2cccc(Cl)c2Cl)c(N)n1", "value": "3.2 µg/mL"}
{"compound": "CC(C)CS[C@H]1C[C@@H](n2cnc3c(N)ncnc32)[C@H](O)[C@@H]1O", "value": "240 µg/mL"}
{"compound": "C#C[C@@H](O)C1=C[C@@H](n2cnc3c(N)ncnc32)[C@H](O)[C@@H]1O", "value": "0.07 µg/mL"}
{"compound": "Nc1ncnc2c1ncn2[C@H]1OC[C@@H](CO)C1O", "value": "240 µg/mL"}
{"compound": "CCc1nc(-n2c(C)nc3ccc(Br)cc3c2=O)nc(N)c1-c1ccc(Cl)cc1", "value": "16 µg/mL"}
{"compound": "OC[C@H]1O[C@@H](c2ccccc2)[C@H](O)[C@@H]1O", "value": ">400 µg/mL"}
{"compound": "CC1=CC(=O)N(c2ccccc2)S(=O)(=O)N1COCCO", "value": ">400 µg/mL"}
{"compound": "CC1(C)[C@@H](CO)CC[C@@]1(C)Cn1cnc2c(=O)[nH]cnc21", "value": ">400 µg/mL"}
{"compound": "Nc1ncnc2c1ncn2CC[C@H](O)CCO", "value": ">400 µg/mL"}
{"compound": "O=c1[nH]cnc2c1cnn2Cc1cn(CCCCO)nn1", "value": ">400 µg/mL"}
{"compound": "OC[C@H]1O[C@@H](c2cc(C#CI)c(F)cc2F)C[C@@H]1O", "value": ">400 µg/mL"}
{"compound": "Nc1ncnc2c1ccn2[C@@H]1C[C@H](O)[C@@H](O)[C@H]1O", "value": "0.04 µg/mL"}
{"compound": "Cc1cn([C@H]2OC[C@@H](CO)C2F)c(=O)[nH]c1=O", "value": "240 µg/mL"}
{"compound": "Nc1ncnc2c1ncn2[C@H]1CO[C@H](CO)[C@@H](O)C1", "value": ">20 µg/mL"}
{"compound": "CC1(C)[C@@H](CO)CC[C@@]1(C)Cn1cc(I)c(=O)[nH]c1=O", "value": ">400 µg/mL"}
{"compound": "Nc1ncnc2c1cnn2Cc1cn(CCCCO)nn1", "value": ">400 µg/mL"}
{"compound": "Cc1cn([C@H]2C[C@H]([N+](=O)[O-])[C@@H](CO)O2)c(=O)[nH]c1=O", "value": ">200 µg/mL"}
{"compound": "CO[C@H]1[C@H]2O[Si](C(C)C)(C(C)C)O[Si](C(C)C)(C(C)C)OC[C@@H]2O[C@@H]1c1ccccc1", "value": ">16 µg/mL"}
{"compound": "CC(=O)OCCOCN1C=CC(=O)N(COCCO)S1(=O)=O", "value": ">400 µg/mL"}
{"compound": "OC[C@H]1O[C@H](c2cc(Cl)c(F)cc2F)C[C@@H]1O", "value": ">400 µg/mL"}
{"compound": "O=c1[nH]cnc2c1ncn2C1C[C@H](CO)[C@@H](CO)C1", "value": ">100 µg/mL"}
{"compound": "Nc1nc(N)c2ncn([C@H]3CO[C@H](CO)[C@@H](O)C3)c2n1", "value": ">20 µg/mL"}
{"compound": "Cc1cccn2c(C3SCCS3)cnc12", "value": ">1000 µM"}
{"compound": "OC[C@H]1O[C@H](c2cc(I)c(F)cc2F)C[C@@H]1O", "value": ">400 µg/mL"}
{"compound": "N#CC1=CN(COCCO)S(=O)(=O)N=C1N", "value": ">400 µg/mL"}
{"compound": "O=c1[nH]c(=O)n(C2CC(O[N+](=O)[O-])C(CO)O2)cc1F", "value": ">400 µg/mL"}
{"compound": "O=c1[nH]c(=O)n([C@H]2C[C@H](O)[C@@H](CO)O2)cc1C1CC1", "value": "35 µM"}
{"compound": "O=P(O)(O)OC[C@H]1OC(O)[C@@H](O)[C@@H](O)[C@@H]1O", "value": ">400 µg/mL"}
{"compound": "Nc1nc2c(ccn2[C@H]2CO[C@@H](CO)C2)c(=O)[nH]1", "value": "300 µg/mL"}
{"compound": "CC(C)(C)c1cn([C@H]2C[C@H](O)[C@@H](CO)S2)c(=O)[nH]c1=O", "value": ">1500 µM"}
{"compound": "COc1cc2c(cc1OC)[C@@H]1C(N)CSCON1CC2", "value": "0.07 µg/mL"}
{"compound": "CO[C@H](CO)[C@@H](O)CCn1cnc2c(N)ncnc21", "value": ">400 µg/mL"}
{"compound": "Cc1cc([C@@H]2C[C@H](O)[C@@H](CO)O2)c(Cl)cc1F", "value": ">400 µg/mL"}
{"compound": "Cc1cccn2c(C3OCCS3)cnc12", "value": ">1000 µM"}
{"compound": "OC[C@H]1O[C@@H](c2ccc(F)cc2F)C[C@@H]1O", "value": ">400 µg/mL"}
{"compound": "Nc1ncnc2c1ncn2[C@@H]1C=C(CO)[C@@H](O)[C@H]1O", "value": "0.7 µg/mL"}
{"compound": "OC[C@H]1CC(n2cnc3c(NC4CC4)ncnc32)C[C@@H]1CO", "value": ">100 µg/mL"}
{"compound": "NC1=CC(N)=NS(=O)(=O)N1COCCO", "value": ">400 µg/mL"}
{"compound": "O=c1[nH]c(=O)n([C@H]2C[C@H](O)[C@@H](COP(=O)(O)O)O2)cc1I", "value": "0.2 µg/mL"}
{"compound": "OC[C@H]1O[C@@H](c2cc(C#CBr)c(F)cc2F)C[C@@H]1O", "value": ">400 µg/mL"}
{"compound": "C/C(O)=C1\\C(=N)N(COCCO)S(=O)(=O)N=C1N", "value": ">400 µg/mL"}
{"compound": "CCCc1cn([C@H]2C[C@H](O)[C@@H](CO)O2)c(=O)[nH]c1=O", "value": "890 µM"}
{"compound": "OC[C@H]1O[C@@H](c2cc(Br)c(F)cc2F)C[C@@H]1O", "value": ">400 µg/mL"}
{"compound": "Nc1nc2c(ncn2[C@H]2OC[C@@H](CO)C2O)c(=O)[nH]1", "value": "240 µg/mL"}
{"compound": "OCCCCn1nncc1Cn1ncc2c(SCc3ccccc3)ncnc21", "value": ">400 µg/mL"}
{"compound": "Cc1cc([C@@H]2C[C@H](O)[C@@H](CO)O2)c(F)cc1F", "value": ">400 µg/mL"}
{"compound": "Cc1ccn2c(C3SCCS3)cnc2c1", "value": ">1000 µM"}
{"compound": "CC(C)(C)c1cn([C@H]2C[C@H](O)[C@@H](CO)O2)c(=O)[nH]c1=O", "value": "850 µM"}
{"compound": "Nc1ncnc2c1ncn2[C@@H]1O[C@H](COP(=O)(O)O)[C@@H](O)[C@H]1O", "value": "300 µg/mL"}
{"compound": "O=c1[nH]c(=O)n([C@H]2C[C@H](O)[C@@H](CO)O2)cc1/C=C/Br", "value": "0.384 µM"}
{"compound": "Cc1cn(CC[C@H](O)CCO)c(=O)[nH]c1=O", "value": ">400 µg/mL"}
{"compound": "COC(=O)[C@H](C)NP(=O)(OC[C@H]1O[C@@H](n2cc(/C=C/Br)c(=O)[nH]c2=O)C[C@@H]1O)Oc1ccccc1", "value": "9.6 µM"}
{"compound": "O=c1[nH]c(=O)n(C2CC(O[N+](=O)[O-])C(CO)O2)cc1I", "value": ">400 µg/mL"}
{"compound": "Nc1nc2c(ncn2[C@H]2CO[C@@H](CO)C2)c(=O)[nH]1", "value": ">400 µg/mL"}
{"compound": "COc1cc(Cc2cnc(-n3c(-c4ccccc4)nc4ccc(Br)cc4c3=O)nc2N)cc(OC)c1OC", "value": "80 µg/mL"}
{"compound": "O=c1ccn([C@@H]2C[C@H](CO)C[C@H]2CO)c(=O)[nH]1", "value": ">100 µg/mL"}
{"compound": "O=c1[nH]c(=O)n([C@H]2C[C@H](O)[C@@H](CO)S2)cc1C1CCCCC1", "value": "720 µM"}
{"compound": "CC1(C)[C@@H](CO)CC[C@@]1(C)Cn1cnc2c(Cl)ncnc21", "value": ">400 µg/mL"}

Repeating the final 6 entries:

| compound | value |
|---|---|
| O=c1[nH]c(=O)n(C2CC(O[N+](=O)[O-])C(CO)O2)cc1I | >400 µg/mL |
| Nc1nc2c(ncn2[C@H]2CO[C@@H](CO)C2)c(=O)[nH]1 | >400 µg/mL |
| COc1cc(Cc2cnc(-n3c(-c4ccccc4)nc4ccc(Br)cc4c3=O)nc2N)cc(OC)c1OC | 80 µg/mL |
| O=c1ccn([C@@H]2C[C@H](CO)C[C@H]2CO)c(=O)[nH]1 | >100 µg/mL |
| O=c1[nH]c(=O)n([C@H]2C[C@H](O)[C@@H](CO)S2)cc1C1CCCCC1 | 720 µM |
| CC1(C)[C@@H](CO)CC[C@@]1(C)Cn1cnc2c(Cl)ncnc21 | >400 µg/mL |